{
  "source": "patent US20030176327A1",
  "about": "(priority 2001, published 2003)",
  "origin": "cited, not measured here",
  "test_system": "B anthracis",
  "conditions": "cited from earlier work",
  "data": [
    {"smiles": "CC(C)(O/N=C(\\C(=O)N[C@@H]1C(=O)N2C(C(=O)[O-])=C(C[n+]3ccccc3)CS[C@H]12)c1csc(N)n1)C(=O)O", "values": [
      {"measurement": "Natural resistance of B anthracis strains", "result": "Natural resistance"}
    ]},
    {"smiles": "Cc1cc(NS(=O)(=O)c2ccc(N)cc2)no1", "values": [
      {"measurement": "Natural resistance of B anthracis strains", "result": "Natural resistance"}
    ]},
    {"smiles": "C[C@H]1[C@H](NC(=O)/C(=N\\OC(C)(C)C(=O)O)c2csc(N)n2)C(=O)N1S(=O)(=O)O", "values": [
      {"measurement": "Natural resistance of B anthracis strains", "result": "Natural resistance"}
    ]},
    {"smiles": "CO/N=C(\\C(=O)N[C@@H]1C(=O)N2C(C(=O)O)=C(COC(N)=O)CS[C@H]12)c1ccco1", "note": "[Cefuroxime]", "values": [
      {"measurement": "Natural resistance of B anthracis strains", "result": "Natural resistance"}
    ]},
    {"smiles": "COc1cc(Cc2cnc(N)nc2N)cc(OC)c1OC", "values": [
      {"measurement": "Natural resistance of B anthracis strains", "result": "Natural resistance"}
    ]},
    {"smiles": "CO/N=C(\\C(=O)N[C@@H]1C(=O)N2C(C(=O)O)=C(COC(C)=O)CS[C@H]12)c1csc(N)n1", "values": [
      {"measurement": "Natural resistance of B anthracis strains", "result": "Natural resistance"}
    ]}
  ]
}
